Experimental data reported in patent US7608726B2, “Substituted indolepyridinium as anti-infective compounds” (Tibotec Pharmaceuticals Ltd., priority 2002, dated 2009).

Test system: HIV viruses
Assay: Cross resistance study with more than 8000 viruses

In the case of `Cn1c2ccccc2c2c1cc(C#N)c(=O)n2-c1ccc([N+](=O)[O-])cc1` [Compound 2, 5-methyl-1-(4-nitro-phenyl)-2-oxo-2,5-dihydro-1H-pyrido[3,2-b]indole-3-carbonitrile], the “calculated correlation coefficient with 3TC” value (versus 3TC) is reported as “about 0.63”, the “calculated correlation coefficient with known NRTIs” value (versus abacavir, AZT, D4T, DDC, DDI (all cases except 3TC)) is reported as “lower than 0.28” and the “calculated correlation coefficient with known NNRTIs” value (versus capravirine, delavirdine, nevirapine, efavirenz) is reported as at most 0.13.
